Source: paper PMC2565699

Columns and labels:
[1] = biological target: EF(2)mutURE3-BP (myc-tagged, calcium-insensitive dominant positive) (Entamoeba histolytica) (UniProt Q9GSV7); assay: EMSA; settings: 10 mM Tris-HCl pH 7.9, 50 mM NaCl, 1 mM EDTA, 0.05% nonfat milk powder, 3% glycerol, 0.2 ug poly(dIdC), 10 fmol probe, 2 ug nuclear extract, 20 C, 1 h, protein in an extract, protein details: N-terminal myc, label: 32P (Klenow) as probe, unlabeled as competitor
[2] = biological target: T1, URE3-BP (Entamoeba histolytica) (UniProt Q9GSV7); assay: EMSA; settings: low calcium, STOP-EF(2)mutURE3-BP extract, equivalent to EF(2)mut; 10 mM Tris-HCl pH 7.9, 50 mM NaCl, 1 mM EDTA, 0.05% nonfat milk powder, 3% glycerol, 0.2 ug poly(dIdC), 10 fmol probe, 2 ug nuclear extract, 20 C, 1 h; protein in an extract; label: 32P (Klenow) as probe, unlabeled as competitor
T1 sequence (looked up, limits assumed): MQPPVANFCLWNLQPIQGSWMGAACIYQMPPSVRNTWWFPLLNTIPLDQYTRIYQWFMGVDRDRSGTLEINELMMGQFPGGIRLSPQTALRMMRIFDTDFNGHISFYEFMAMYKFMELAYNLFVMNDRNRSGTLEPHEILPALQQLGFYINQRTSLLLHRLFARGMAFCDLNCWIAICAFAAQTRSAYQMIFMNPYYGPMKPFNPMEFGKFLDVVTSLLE

Measured: binding result

TGTTCCAAAAAGATATATTCTATTGAAAATAAAAGAAG (double strand) [hgl5-URE3 (wt)]
binds: [1]; added calcium | [1]; low calcium, equivalent to STOP control | [2]

For at least one entry, the source does not settle the construct or the ends of the probe. At least one result comes from cells or an extract, where the contact may be indirect. For part of these data: Tags and fusion partners may be left off the protein sequences shown.
